Measured values from several laboratories, pooled; numbers as filed in NIAID ChemDB.

Shared fields: tests in culture; agent: HIV-1; method: luciferase; endpoint: EC50

ECn is the concentration giving n% inhibition of infection, replication or growth. An empty or dashed field is not shown. Rows are shuffled and stem from different studies.

SMILES | strain | mutations | cell line | value
COc1ncc(OC)c2c(C(=O)C(=O)N3CCC(=C(C#C[Si](C)(C)C)c4ccccc4)CC3)c[nH]c12 | - | - | HeLa | <1 µM
COc1ccc(N(C)C(=O)[C@H](Cc2ccccc2)NC(=O)NS(=O)(=O)N[C@@H](Cc2ccccc2)C(=O)N2CCCC2)cc1 | NL4-3 | - | MT-2 | 2.04 µM
C[C@]1(CO)O[C@@H](n2cnc3c(N)ncnc32)C[C@@H]1O | - | (delta)Env | HOS | 0.063 µM
C[C@@H]1CN(C(=O)c2ccc(N)cc2)CCN1C(=O)C(=O)c1c[nH]c2c(F)ccc(F)c12 | - | - | HeLa + HELA CD4+/CCR5 | <10 µM
COc1cnc(-c2ccc(C#N)cc2)c2[nH]cc(C(=O)C(=O)N3CCC(=C(C#N)c4ccccc4)CC3)c12 | - | - | HeLa | <1 µM
O=C(C(=O)N1CCN(C(=O)c2ccccc2)CC1C(F)(F)F)c1c[nH]c2cccc(F)c12 | - | - | HeLa + HELA CD4+/CCR5 | <10 µM
COc1cnc(-n2cnc(C)n2)c2[nH]cc(C(=O)C(=O)N3CCC(=C(c4ccccc4)c4cn(C)cn4)CC3)c12 | - | - | HeLa | <1 µM
COc1ccnc2[nH]cc(C(=O)C(=O)N3C4CC3CN(C(=O)c3ccccc3)C4)c12 | SF162 | - | TZM-bl | 140 µM
CN(C(=O)[C@H](Cc1cc(F)cc(F)c1)NC(=O)/C=C\C(=O)N[C@@H](Cc1cc(F)cc(F)c1)C(=O)N(C)c1ccc2scnc2c1)c1ccc2scnc2c1 | NL4-3 | - | MT-2 | 0.08 µM
O=C(C(=O)N1CCN(C(=O)c2ccccc2)CC1)c1c[nH]c2cc(F)cc(F)c12 | - | - | HeLa + HELA CD4+/CCR5 | <10 µM
COc1ccnc2[nH]cc(C(=O)C(=O)N3C4CCC3CN(C(=O)c3ccccc3)C4)c12 | ZM214 | - | TZM-bl | 1.1 µM
O=C(C(=O)N1CCN(C(=O)c2ccccc2)CC1)c1c[nH]c2c(F)cccc12 | - | - | HeLa + HELA CD4+/CCR5 | <10 µM
COc1ccc(N(C)C(=O)[C@H](Cc2ccccc2)NC(=O)Cc2cn(CC(=O)N[C@@H](Cc3ccccc3)C(=O)N(C)c3ccc(OC)cc3)c3ccccc23)cc1 | NL4-3 | - | MT-2 | 0.61 µM
COc1cnc(-n2ccnn2)c2[nH]cc(C(=O)C(=O)N3CCC(=C(c4ccccc4)c4cnn(Cc5ccccc5)c4)CC3)c12 | - | - | HeLa | <1 µM
CN(C(=O)[C@H](Cc1cc(F)cc(F)c1)NC(=O)c1ccc(F)c(C(=O)N[C@@H](Cc2cc(F)cc(F)c2)C(=O)N(C)c2ccc3scnc3c2)c1)c1ccc2scnc2c1 | NL4-3 | - | MT-2 | 0.01 µM
COC(=O)c1cccc2c(C(=O)C(=O)N3CCN(C(=O)c4ccccc4)C(C(C)C)C3)c[nH]c12 | - | - | HeLa + HELA CD4+/CCR5 | <10 µM
CN(C(=O)[C@H](Cc1cc(F)cc(F)c1)Nc1ccnc(N[C@@H](Cc2cc(F)cc(F)c2)C(=O)N(C)c2ccc3scnc3c2)n1)c1ccc2scnc2c1 | NL4-3 | - | MT-2 | 2.86 µM
COc1cnc(-n2cnc(C)n2)c2[nH]cc(C(=O)C(=O)N3CCC(=C(c4ccccc4)c4nnc(C(C)(C)C)o4)CC3)c12 | - | - | HeLa | <1 µM
COc1ccc(N(C)C(=O)[C@H](Cc2ccccc2)NC(=O)N[C@@H](Cc2ccccc2)C(=O)N(C)c2ccc(OC)cc2)cc1 | NL4-3 | - | MT-2 | 2.86 µM
Cc1cc(S(N)(=O)=O)ccc1NC(=O)COc1ccc(Cl)cc1C(=O)c1cc(F)cc(C(F)(F)F)c1 | IIIB | RT-V108I Y181C | HELA MAGI | 0.0034 µM
COc1ccc(N(C)C(=O)[C@H](Cc2ccccc2)NC(=O)Cc2ccccc2CC(=O)N[C@@H](Cc2ccccc2)C(=O)N(C)c2ccc(OC)cc2)cc1 | NL4-3 | - | MT-2 | 0.55 µM
Cc1cc(C#N)cc(C)c1Oc1nc(Nc2ccc(C#N)cc2)nc(N)c1Br | 94ug114.1.6 | N348I | HEK293T | 7.26 nM
COc1ccc(N(C)C(=O)[C@H](Cc2ccccc2)NC(=O)c2ccc(C(=O)N[C@@H](Cc3ccccc3)C(=O)N(C)c3ccc(OC)cc3)s2)cc1 | NL4-3 | - | MT-2 | 0.61 µM
Cc1ccc(F)c2c(C(=O)C(=O)N3CCN(C(=O)c4ccccc4)CC3)c[nH]c12 | - | - | HeLa + HELA CD4+/CCR5 | <10 µM

Repeating the first 3 entries:

SMILES,strain,mutations,cell line,value
COc1ncc(OC)c2c(C(=O)C(=O)N3CCC(=C(C#C[Si](C)(C)C)c4ccccc4)CC3)c[nH]c12,-,-,HeLa,<1 µM
COc1ccc(N(C)C(=O)[C@H](Cc2ccccc2)NC(=O)NS(=O)(=O)N[C@@H](Cc2ccccc2)C(=O)N2CCCC2)cc1,NL4-3,-,MT-2,2.04 µM
C[C@]1(CO)O[C@@H](n2cnc3c(N)ncnc32)C[C@@H]1O,-,(delta)Env,HOS,0.063 µM